Test system: MDR1-MDCK cell monolayers

COc1ccc(-c2csc(Nc3cc4ccccc4cn3)n2)cc1OC [Compound 17, [4-(3,4-dimethoxyphenyl)-thiazol-2-yl]-isoquinolin-3-yl-amine]
Permeability (in words): greater permeability in the absorptive direction
